Measurements as given in the CheMixHub ionic liquid set.

Test: xn = mol fraction of the nth substance listed

C[n+]1ccn(CCCC#N)c1.O=S(=O)(F)[N-]S(=O)(=O)F + CC#N
101 kPa
Settings	electrical conductivity [S/m]	viscosity [mPa·s]
288.15 K, x1 = 0.0977	4.28 ± 0.043	1.55 ± 0.03
288.15 K, x1 = 0.1994	3.09 ± 0.031	4.94 ± 0.11
288.15 K, x1 = 0.2997	1.79 ± 0.018	10.52 ± 0.23
288.15 K, x1 = 0.4003	1.14 ± 0.011	22.06 ± 0.48
288.15 K, x1 = 0.5007	0.722 ± 0.01	38.87 ± 0.85
288.15 K, x1 = 0.5945	0.445 ± 0.01	67.4 ± 1.5
288.15 K, x1 = 0.6987	0.345 ± 0.01	106.1 ± 3.3
288.15 K, x1 = 0.792	0.258 ± 0.01	148.5 ± 5.8
288.15 K, x1 = 0.8983	0.158 ± 0.01	208 ± 10
288.15 K, x1 = 1	0.106 ± 0.01	401 ± 28
293.15 K, x1 = 0.0977	4.55 ± 0.046	1.45 ± 0.03
293.15 K, x1 = 0.1994	3.36 ± 0.034	4.26 ± 0.09
293.15 K, x1 = 0.2997	2.05 ± 0.021	9.18 ± 0.2
293.15 K, x1 = 0.4003	1.31 ± 0.013	18.5 ± 0.4
293.15 K, x1 = 0.5007	0.865 ± 0.01	31.95 ± 0.7
293.15 K, x1 = 0.5945	0.551 ± 0.01	53.2 ± 1.1
293.15 K, x1 = 0.6987	0.426 ± 0.01	81.3 ± 2.1
293.15 K, x1 = 0.792	0.318 ± 0.01	112 ± 3.6
293.15 K, x1 = 0.8983	0.209 ± 0.01	159.3 ± 6.6
293.15 K, x1 = 1	0.134 ± 0.01	290 ± 17
298.15 K, x1 = 0.0977	4.81 ± 0.048	1.36 ± 0.03
298.15 K, x1 = 0.1994	3.65 ± 0.037	3.73 ± 0.08
298.15 K, x1 = 0.2997	2.31 ± 0.023	8.04 ± 0.18
298.15 K, x1 = 0.4003	1.51 ± 0.015	15.67 ± 0.34
298.15 K, x1 = 0.5007	1.03 ± 0.01	26.59 ± 0.58
298.15 K, x1 = 0.5945	0.675 ± 0.01	42.79 ± 0.93
298.15 K, x1 = 0.6987	0.524 ± 0.01	64.2 ± 1.4
298.15 K, x1 = 0.792	0.392 ± 0.01	86.6 ± 2.3
298.15 K, x1 = 0.8983	0.272 ± 0.01	124.4 ± 4.3
298.15 K, x1 = 1	0.182 ± 0.01	215 ± 11
303.15 K, x1 = 0.0977	5.08 ± 0.051	1.28 ± 0.03
303.15 K, x1 = 0.1994	3.93 ± 0.039	3.27 ± 0.07
303.15 K, x1 = 0.2997	2.57 ± 0.026	7.09 ± 0.16
303.15 K, x1 = 0.4003	1.73 ± 0.017	13.4 ± 0.29
303.15 K, x1 = 0.5007	1.2 ± 0.012	22.32 ± 0.49
303.15 K, x1 = 0.5945	0.814 ± 0.01	35.12 ± 0.77
303.15 K, x1 = 0.6987	0.642 ± 0.01	51.5 ± 1.1
303.15 K, x1 = 0.792	0.478 ± 0.01	68.5 ± 1.6
303.15 K, x1 = 0.8983	0.347 ± 0.01	98.7 ± 2.9
303.15 K, x1 = 1	0.234 ± 0.01	160.2 ± 6.6
308.15 K, x1 = 0.0977	5.35 ± 0.054	1.21 ± 0.03
308.15 K, x1 = 0.1994	4.22 ± 0.042	2.87 ± 0.06
308.15 K, x1 = 0.2997	2.84 ± 0.029	6.29 ± 0.14
308.15 K, x1 = 0.4003	1.95 ± 0.02	11.52 ± 0.25
308.15 K, x1 = 0.5007	1.38 ± 0.014	19.09 ± 0.42
308.15 K, x1 = 0.5945	0.964 ± 0.01	29.06 ± 0.63
308.15 K, x1 = 0.6987	0.765 ± 0.01	41.42 ± 0.9
308.15 K, x1 = 0.792	0.582 ± 0.01	55.3 ± 1.1
308.15 K, x1 = 0.8983	0.433 ± 0.01	78.4 ± 1.9
308.15 K, x1 = 1	0.299 ± 0.01	124.6 ± 4.3
313.15 K, x1 = 0.0977	5.61 ± 0.056	1.13 ± 0.03
313.15 K, x1 = 0.1994	4.5 ± 0.045	2.55 ± 0.06
313.15 K, x1 = 0.2997	3.11 ± 0.031	5.56 ± 0.12
313.15 K, x1 = 0.4003	2.2 ± 0.022	9.95 ± 0.22
313.15 K, x1 = 0.5007	1.59 ± 0.016	16.56 ± 0.36
313.15 K, x1 = 0.5945	1.13 ± 0.011	24.3 ± 0.53
313.15 K, x1 = 0.6987	0.907 ± 0.01	34.32 ± 0.75
313.15 K, x1 = 0.792	0.704 ± 0.01	44.33 ± 0.97
313.15 K, x1 = 0.8983	0.53 ± 0.01	63.1 ± 1.4
313.15 K, x1 = 1	0.377 ± 0.01	97.6 ± 2.8
318.15 K, x1 = 0.0977	5.89 ± 0.059	1.08 ± 0.02
318.15 K, x1 = 0.1994	4.78 ± 0.048	2.3 ± 0.05
318.15 K, x1 = 0.2997	3.39 ± 0.034	4.97 ± 0.11
318.15 K, x1 = 0.4003	2.46 ± 0.025	8.72 ± 0.19
318.15 K, x1 = 0.5007	1.8 ± 0.018	14.26 ± 0.31
318.15 K, x1 = 0.5945	1.31 ± 0.013	20.83 ± 0.45
318.15 K, x1 = 0.6987	1.06 ± 0.011	29.18 ± 0.64
318.15 K, x1 = 0.792	0.848 ± 0.01	37.26 ± 0.81
318.15 K, x1 = 0.8983	0.641 ± 0.01	50.8 ± 1
318.15 K, x1 = 1	0.47 ± 0.01	77.7 ± 1.9
323.15 K, x1 = 0.0977	6.16 ± 0.062	1.02 ± 0.02
323.15 K, x1 = 0.1994	5.08 ± 0.051	2.1 ± 0.05
323.15 K, x1 = 0.2997	3.67 ± 0.037	4.43 ± 0.1
323.15 K, x1 = 0.4003	2.74 ± 0.027	7.68 ± 0.17
323.15 K, x1 = 0.5007	2.03 ± 0.02	12.42 ± 0.27
323.15 K, x1 = 0.5945	1.51 ± 0.015	18.27 ± 0.4
323.15 K, x1 = 0.6987	1.24 ± 0.012	24.86 ± 0.54
323.15 K, x1 = 0.792	1.02 ± 0.01	31.38 ± 0.68
323.15 K, x1 = 0.8983	0.764 ± 0.01	42.92 ± 0.94
323.15 K, x1 = 1	0.584 ± 0.01	63.3 ± 1.4

O=S(=O)(F)[N-]S(=O)(=O)F.[Li+] + CC[n+]1ccn(C)c1.O=S(=O)(F)[N-]S(=O)(=O)F
100 kPa
Settings	electrical conductivity [S/m]	viscosity [mPa·s]
268 K, x1 = 0.2	0.3 ± 0.01	–
278 K, x1 = 0.3	0.31 ± 0.01	129.3 ± 3.8
288 K, x1 = 0.2	0.72 ± 0.01	54.5 ± 1.2
308 K, x1 = 0.2	1.35 ± 0.01	26 ± 0.6
308 K, x1 = 0.3	0.99 ± 0.01	36.7 ± 0.8
308 K, x1 = 0.4	0.66 ± 0.01	57.5 ± 1.3
318 K, x1 = 0.3	1.32 ± 0.01	26.7 ± 0.6
338 K, x1 = 0.4	1.51 ± 0.02	21.8 ± 0.5
348 K, x1 = 0.4	1.87 ± 0.02	16.7 ± 0.4

± gives the uncertainty stated by the source.
